Consider one molecule from patent publication US20200270588A1, “GLUCOSYL TRANSFERASE POLYPEPTIDES AND METHODS OF USE” (Syngenta Participations AG, priority 2017, published 2020).

This data set in a line: ELISA of bx protein expressed in E. coli extracts.

B1: A432T: bx9 SEQ ID NO:1 mutant (protein)
chain: MASSRTGAGAGGRVVVFPFPFQGHFNPVMRLARALHARGLAITVFHSGALDPADYPADYRFVPVTVEADPKLLASEDIAAIVTTLNASCDAPFRARLSALLAAEGRDSVRCVFTDVSWNAVLTASSDLGVPALGMMTASAASLRDYMAYRTLIDKGYLPVKEERKEDPVPELPPYLVKDLLRVDTSDLEEFAELLARTVTAARRASGLIFNTFPLIETDTLAEIHKALSVPVFAVAPLNKLVPTATASLHGVVQADRGCLQWLDTQQPGSVLYVSFGSMAAMDPHEFVELAWGLADSKRPFVWVVRPNLIRGFESGALPDGVEDEVRGRGIVVAWAPQEEVLAHPAVGGFLTHNGWNSTVEAISEGVPMVCCPRHGDQFGNMRYVCDVWKVGTELVGEQLERGQVKAAIDRLFGTKEGEEIKERMKEFKIATAKGIGIGVDVDETASPRTDLTDLVDLIKSF
modifications: Zea mays
As for B1, the “expression level relative to w/t bx9 protein” value is reported as roughly 40%.
